Pooled drug test results. Numbers come from NIAID ChemDB, via PubChem.

All rows: tests in culture; agent: Herpes simplex virus 2; measure: inhibition

Percent inhibition refers to the dose given; in toxicity tests it is the harm to the cells.

compound,cell line,strain or isolate,tested at,read by,value
O=c1ccn([C@@H]2O[C@H](CO)[C@@H](O)[C@@H]2F)c(=O)[nH]1,VERO,G,2.5 µM,virus yield,97.9%
CC/C=C/C/C=C/C/C=C/CCCCCCCC(=O)OC[C@H](CO[C@@H]1O[C@H](CO)[C@@H](O)[C@H](O)[C@H]1O)OC(=O)CCCCCCC/C=C/C/C=C/C/C=C/CC,VERO,186,50 µg/mL,plaque count,100%
O=c1[nH]c(=O)n([C@H]2C[C@H](O)[C@@H](CO)O2)cc1CCCl,VERO,K979,30 µg/mL,cytopathic effect,≥25%
CC(C)=CCC[C@@H](COS(=O)(=O)O)C1CCC2C3CC[C@H]4C[C@H](OS(=O)(=O)O)[C@@H](O)CC4(C)C3CCC21C,VERO,G,40 µg/mL,plaque count,98.2%
CC/C=C/C/C=C/C/C=C/CCCCCCCC(=O)OCC(CO[C@@H]1O[C@H](CO)[C@@H](O)[C@H](O)[C@H]1O)OC(=O)CCCCCCC/C=C\C/C=C\CCCCC,VERO,186,50 µg/mL,plaque count,70%
O=c1[nH]c(=O)n([C@H]2C[C@H](O)[C@@H](CO)O2)cc1I,VERO,K979,1 µg/mL,cytopathic effect,≥25%
CC12CC[C@H](O)CC1=CCC1C2CCC2(C)C(C(=O)COS(=O)(=O)O)CCC12,VERO,G,80 µg/mL,plaque count,16.9%
O=c1[nH]c(=O)n([C@H]2C[C@H](O)[C@@H](CO)O2)cc1CCI,HEP-2,-,30 µg/mL,cytopathic effect,≥25%
CCCCCCCC/C=C\CCCCCCCC(=O)OC(COC(=O)CCCCCCCCCCC)CO[C@@H]1O[C@H](CO)[C@@H](O)[C@H](O)[C@H]1O,VERO,186,50 µg/mL,plaque count,17%
COC(=O)/C=C/c1cn([C@H]2C[C@H](O)[C@@H](CO)O2)c(=O)[nH]c1=O,HEP-2,-,30 µg/mL,cytopathic effect,≥25%
CCCCCCCCCCCC(=O)OC[C@H](CO[C@@H]1O[C@H](CO)[C@@H](O)[C@H](O)[C@H]1O)OC(=O)CCCCCCCCCCC,VERO,186,50 µg/mL,plaque count,50%
O=c1[nH]c(=O)n([C@@H]2O[C@H](CO)[C@@H](O)[C@@H]2F)cc1I,VERO,G,1 µM,virus yield,90.1%
O=c1[nH]c(=O)n([C@@H]2C[C@H](O)[C@@H](CO)O2)cc1CCCl,HEP-2,-,100 µg/mL,cytopathic effect,≥25%
Nc1nc2c(ncn2COC(CO)CO)c(=O)[nH]1,VERO,K979,0.3 µg/mL,cytopathic effect,≥25%
O=c1[nH]c(=O)n([C@H]2C[C@H](O)[C@@H](CBr)O2)cc1CCBr,HEP-2,-,100 µg/mL,cytopathic effect,≥25%
CC12CC[C@H](OS(=O)(=O)O)CC1=CCC1C2CCC2(C)C(C(=O)CO)CCC12,VERO,G,40 µg/mL,plaque count,0%
Cc1cn([C@@H]2O[C@H](CO)[C@@H](O)[C@@H]2F)c(=O)[nH]c1=O,VERO,G,5 µM,virus yield,98%
CC(=O)O[C@H]1CC2=CCC3C(CCC4(C)C(C(CCC=C(C)C)COS(=O)(=O)O)CCC34)C2(C)C[C@@H]1OS(=O)(=O)O,VERO,G,10 µg/mL,plaque count,12%
Nc1nc(=O)n([C@@H]2O[C@H](CO)[C@@H](O)[C@@H]2F)cc1I,VERO,G,0.01 µM,virus yield,50%

Repeating the first 2 entries:

compound | cell line | strain or isolate | tested at | read by | value
O=c1ccn([C@@H]2O[C@H](CO)[C@@H](O)[C@@H]2F)c(=O)[nH]1 | VERO | G | 2.5 µM | virus yield | 97.9%
CC/C=C/C/C=C/C/C=C/CCCCCCCC(=O)OC[C@H](CO[C@@H]1O[C@H](CO)[C@@H](O)[C@H](O)[C@H]1O)OC(=O)CCCCCCC/C=C/C/C=C/C/C=C/CC | VERO | 186 | 50 µg/mL | plaque count | 100%

Lines come from different laboratories, so protocols vary. An empty or dashed field is not shown.